The values are deposited in ChEMBL (CHEMBL3988442, “University of Dundee, Small-Polar-MMV Screening Library” (2021)).

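Growth of Mycobacterium tuberculosis over 3 days (7H9 medium with glucose and tyloxapol); the read-out is not stated. Compounds at 500 µM. The record gives no direction; compounds that gave an IC50 in retests scored well above the rest, so higher reads as more growth inhibition. Of about 18,000 compounds tested this way, about 1,400 (7.9%) reached 50% or more in at least one test.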

Values are the deposited “Percent Effect”, in %. The record does not define 0% and 100%; most values in the screen are far below 50% and negative numbers occur (in some assays of this library far below -100). Many other results are left out here, so strong results are more common than in the screen.

Compound	percent effect
O=C(CSC1=NCCN1)Nc1ccc(F)cc1	4.577
Cc1nc(C)c(CNc2ccc(C#N)nc2)s1	1.37
N#Cc1ccc(C(=O)NCCCc2ncc[nH]2)cn1	4.582
COc1ccc(OC)c(CNc2nc(C)nn2C)c1	79.23
CNc1nc(C)cc(C(=O)NC(C)c2ncon2)n1 (stereo not shown)	12.84
O=C(NC1CC1)c1ccccc1C(F)(F)F	-2.475
COCCOc1ccc(CNC(=O)c2ccoc2)cn1	24.79
CC(C)NC(=O)CNC(C)CC(=O)Nc1ccccc1 (stereo not shown)	-9.267
CCC(C)NC(=O)Nc1cccc(C(=O)NC)c1 (stereo not shown)	-2.738
O=C(NC1CCc2ccccc21)c1cc[nH]n1 (stereo not shown)	31.09
C[C@@H](N)C(=O)N1Cc2ccccc2C1	5.562
CNC(=O)CCSc1ccc2c(c1)OCCO2	67.74
NCC(=O)N1CCC(C(N)=O)CC1	2.883
CS(=O)(=O)NCC(CO)Cc1c(F)cccc1Cl (stereo not shown)	30.93
COCc1ccc(C(=O)NCc2cccc(F)c2)o1	65.52
COc1ccc(CCC(=O)NC2CCN(C)CC2)cc1	-0.212
OCC(Nc1ncccc1Br)c1ccccc1 (stereo not shown)	67.84
NC1CCN(CC(F)F)CC1	-6.291
CCOc1ccc(-c2cc(N)[nH]n2)cc1	63.33
c1cnc2nc(N3CCNCC3)oc2c1	-5.318
CN(C)C(=O)c1csc(N2CCCCC2)n1	53.91
COc1ncccc1C(=O)NCCc1cccs1	71.19
COCC(Nc1nc(C(C)C)ns1)C(N)=O (stereo not shown)	-5.468
CC(Sc1ncccc1Br)C(=O)N(C)CCC#N (stereo not shown)	31.44
NCCCc1ccccc1F	-1.087
CC(=O)Nc1nc(CN2CCn3ccnc3C2)cs1	8.425
Cc1cc(CN)on1	99.94
CN(C(=O)c1ccccc1)S(=O)(=O)c1ccccc1	81.1
COC(=O)CNC(=O)c1ccc(C)c(-n2cccc2)c1	59.59
Cc1cccc(S(=O)(=O)N2CC[C@H](N)C2)c1C#N	-3.853
CN(C(=O)c1cccc(F)c1F)S(C)(=O)=O	12.38
CC(C)COCCN1CCCN(C)C(=O)C1	14.08
CCNC(=O)CNc1cc(C)c(Cl)cc1OC	56.67
CN(C)C1CCN(CC(=O)NCCc2ccnn2C)C1 (stereo not shown)	-2.475
CS(=O)(=O)N1CCN(C(=O)c2cc(C3CC3)on2)CC1	33.81
O=C(c1c[nH]c2ccccc12)N1CCCNCC1	8.71
CNS(=O)(=O)c1ccc(C(=O)Nc2ccccc2C)o1	19.56
CCNC(=O)NCCN(C)C	18.33
CCCN(CC(N)=O)S(=O)(=O)c1ccc(C)cc1	13.01
Cc1ncncc1C(=O)NCCC1CCCN1C (stereo not shown)	-3.022
Cc1nc(-c2c[nH]c(C(=O)N3CCCC3)c2)cs1	93.16
O=S(=O)(NCCN1CCCC1)c1c(F)cccc1F	14.83
Cc1cc(Br)oc1C(=O)N1CCOC(C)C1 (stereo not shown)	27.6
COCc1nn(Cc2sc(C)nc2C)c(=O)o1	7.616
COC(=O)NC(C)C(=O)NCCNc1ncccc1C (stereo not shown)	10.66
CC(CNC(=O)NCc1ccncc1)N(C)C1CC1 (stereo not shown)	0.7607
CCc1cc(N2CCCC(N)C2)ncn1 (stereo not shown)	49.09
NCCCc1nnc(N)s1	9.272
Cc1cccnc1CCN	4.701
Cc1cccc(OCC(O)CN)c1 (stereo not shown)	55.11
N[C@H]1CCCc2cc(F)ccc21	-338.4
O=C1NC(=O)c2cc(F)c(F)cc21	1.061
COc1cccc(S(=O)(=O)CCN2CCC(O)CC2)c1	64.67
Cc1ccc(-n2nnc(C#N)c2C)cc1	-1.566
NCC(CO)Cc1ccncc1 (stereo not shown)	-11.73
NCCNS(=O)(=O)c1ccc(F)c(Br)c1	50.4
COc1ccc(CCN)cc1S(N)(=O)=O	15.92
NCCC(=O)N1CCN(c2ccccn2)CC1	18.53
O=C(Cc1ccc(O)cc1)NC1CCNCC1	-5.731